US20120149710A1, “SORTASE A INHIBITORS” (priority 2009, published 2012)

Protein sequences, listed by entry. Tags and fused reporters are not part of them. Residues count along the entry.
UniProt Q2FV99, 60-206 limits assumed: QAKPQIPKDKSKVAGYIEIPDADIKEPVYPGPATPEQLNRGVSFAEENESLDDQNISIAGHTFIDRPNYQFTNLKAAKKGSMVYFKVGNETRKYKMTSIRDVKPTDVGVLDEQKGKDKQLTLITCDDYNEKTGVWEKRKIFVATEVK

Columns and labels:
S. aureus SrtA = S. aureus SrtA (Staphylococcus aureus, UniProt Q2FV99); test: FRET assay of SrtA-catalyzed hydrolysis of Abz-LPETG-Dap(Dnp); IC50 / Ki app; format: biochemical
S. aureus = conditions: 500 μM inhibitor, vs 2.5% DMSO control
[1] = target: B. anthracis sortase A enzyme (Bacillus anthracis, UniProt P0DPQ5)

`CCOc1c(S)cnn(-c2ccccc2)c1=O` was tested, and the “Increase of potency against SrtA relative to compound 2” value (S. aureus SrtA; compare 2 with 2-1) was “more than 20 fold”, the Ki (S. aureus SrtA; read-out: Ki app, S. aureus SrtA (unit inferred)) was 0.2 µM and the “Ki app value lower than that of compound 2” value (S. aureus SrtA; vs compound 2) was “about 40 fold”.

With `CCOc1cnn(-c2cccc(C)c2)c(=O)c1S` the “Inhibition of S. aureus SrtA, potency in words” value (S. aureus SrtA) was “low micromolar”.

In the case of `CC1=NN(c2ccccc2)C(=S)/C1=C/Nc1ccc(Br)cc1`, the “Effect on S. aureus growth in cell culture, in words” value (from here on “Effect on S. aureus growth”) (S. aureus) is reported as “do not substantially affect bacterial growth”.

For `CC1=NN(c2ccccc2)C(=S)/C1=C/Nc1ccc(/N=N/c2ccccc2)cc1`, the “Effect on S. aureus growth” value (S. aureus) was “do not substantially affect bacterial growth”.

For `CC1=NN(c2ccccc2)C(=S)/C1=C/Nc1ccccn1`, the “Effect on S. aureus growth” value (S. aureus) was “do not substantially affect bacterial growth” and the potency estimated from few doses [1] was greater than 34 µM.
